This note sets out measurements from paper PMC2964674.

The exact form of at least one protein or probe is not confirmed. At least one verdict rests on a figure or table, not on a statement of the authors. Where a protein sequence is shown, tags need not be part of it.

The data set has as its target T1, EBNA1 DBD (Epstein-Barr virus) (UniProt P03211).
T1 sequence (looked up): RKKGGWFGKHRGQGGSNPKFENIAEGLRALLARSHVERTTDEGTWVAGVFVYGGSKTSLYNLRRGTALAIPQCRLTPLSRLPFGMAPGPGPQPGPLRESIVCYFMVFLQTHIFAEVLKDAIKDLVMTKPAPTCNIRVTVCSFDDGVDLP
In words: EMSA. Conditions: 246 nM DBD, 10 nM DNA, recombinant protein, residues 459-607, protein details: hexa-His, label: 32P. Background: A gel shift assay detects complexes by their altered migration in electrophoresis.

For “GATCCGGATACAGATTAGGATAGCATATACTACCCA (double strand) [EBV FR]”, the binding result was “binds”.

With “TGGATAATAAGTGTTGCCTCTTGGGTAACC (double strand) [Chr11.1]”, for the setting “relatively high affinity”, the binding result is on record as “binds”.

With “GGATAGGATGTCACATACGAATTTTGAGGG (double strand) [MAP3K7IP2]”, the binding result is “binds”.

“ATGGTAGAGGCAGCACATGCTACCTAACCT (double strand) [Motif 2]”: the binding result (relatively high affinity) was “binds”.
